Results of unrelated studies side by side (data: NIAID ChemDB).

Common to all: cytotoxicity tests; cell line: PBMC; read-out: CC50

Lines come from different laboratories, so protocols vary. CCn: concentration that lowers growth or viability of the cells by n%. Blank or dashed fields: not listed here.

SMILES	method	result
CC1(C)Oc2ccc3ccc(=O)oc3c2[C@@H](OC(=O)C23CCC(C)(C(=O)O2)C3(C)C)[C@H]1OC(=O)C12CCC(C)(C(=O)O1)C2(C)C		13.7 µM
C[Si](O)(O[Si](C)(CCCn1cnc2c(N)ncnc21)c1ccccc1)c1ccccc1		80 µM
Clc1ccc(-c2c3nc(c(-c4ccc(Cl)cc4)c4ccc([nH]4)c(-c4ccc(Cl)cc4)c4nc(c(-c5ccc(Cl)cc5)c5ccc2[nH]5)C=C4)C=C3)cc1		>100 µM
C/C(=C\CP(=O)(OCOC(=O)C(C)(C)C)OCOC(=O)C(C)(C)C)Cn1cnc2c(=O)[nH]c(N)nc21	absorbance	90.7 µM
C[n+]1ccc(-c2c3nc(c(-c4cc[n+](C)cc4)c4ccc([nH]4)c(-c4cc[n+](C)cc4)c4nc(c(-c5cc[n+](C)cc5)c5ccc2[nH]5)C=C4)C=C3)cc1		>100 µM
COc1cc(-c2ccc(Nc3ccccc3C(=O)O)c(OC)c2)ccc1Nc1ccccc1C(=O)O	MTS	>100 µM
NCC(NC(=O)c1ccc(-c2ccc(C(F)(F)F)c(F)c2)[nH]1)c1nc(CO)cs1	MTT	15 µM
Cc1nc2ccccc2nc1COC(=O)c1ccc(O)cc1	MTS	>100 µM
Cc1cn([C@@H]2CC[C@H](COC(=O)CCCCCCCCC(=O)OC[C@H]3O[C@@H](n4cc(C)c(=O)[nH]c4=O)C[C@@H]3N=[N+]=[N-])O2)c(=O)[nH]c1=O		>1 µM
CC(C)OC(=O)OCOP(=O)(CO[C@H](C)Cn1cnc2c(N)ncnc21)OCOC(=O)OC(C)C	MTT	17.34 µM
CN(C)c1ccc(Nc2c3ccc(NC(=O)CCN4CCCC4)cc3nc3cc(NC(=O)CCN4CCCC4)ccc23)cc1		79.6 µM
COc1cc2c(cc1[N+](=O)[O-])CN(c1nn3c(C4CC4)nnc3c3ccccc13)CC2		63.4 µM
C1=Cc2nc1c(-c1ccccc1)c1ccc([nH]1)c(-c1ccccc1)c1nc(c(-c3ccccc3)c3ccc([nH]3)c2-c2ccccc2)C=C1		>100 µM
Cc1nnc2c3ccccc3c(N3CCc4ccccc4C3)nn12		37.1 µM
Nc1nc2c(ncn2C[C@H]2C[C@H]2[C@H](O)CO)c(=O)[nH]1		>100 µM
COc1cc([N+](=O)[O-])c(S(=O)(=O)[O-])cc1N=N/C(=N\Nc1cc(S(=O)(=O)[O-])c([N+](=O)[O-])cc1OC)C(=O)Nc1ccccc1	trypan blue	548 µM
Cn1cc(C(=O)O)c(=O)c2cc(F)c(N3CC=C(c4ccccc4)CC3)c(C(F)(F)F)c21	MTT	3.2 µM
Nc1nc2c(ncn2[C@H]2O[C@@H](CO)C=C2F)c(=O)[nH]1		>100 µM
Cc1ccc(-c2c3nc(c(-c4ccc(C)cc4)c4ccc([nH]4)c(-c4ccc(C)cc4)c4nc(c(-c5ccc(C)cc5)c5ccc2[nH]5)C=C4)C=C3)cc1		>100 µM
Nc1nc(=O)n([C@@H]2C=C[C@H](CO)O2)cc1F		>100 µM
CC#C[C@]1(O)CC[C@H]2[C@@H]3CCC4=CC(=O)CCC4=C3[C@@H](c3ccc(N(C)C)cc3)C[C@@]21C	MTT	36 µM
COc1ccc2[nH]c(=O)c(CN(Cc3cccnc3)S(=O)(=O)c3cccc4nsnc34)cc2c1	MTT	6.8 µM
Nc1ccn([C@H]2S[C@@H](CO)C=C2F)c(=O)n1		>100 µM
CC(C)(C)c1ccccc1NC(=O)NCCc1ccc2c(n1)NCCC2		0.45 µM
Nc1nc(=O)n([C@@H]2O[C@@H](CO)C=C2F)cc1F		>100 µM
O=c1ccn(CC(F)(F)C(F)(F)C(F)(F)CO)c(=O)[nH]1		>100 µM
COC(=O)[C@H](C)NP(=O)(OC[C@@H]1C=C[C@H](n2cc(C)c(=O)[nH]c2=O)O1)Oc1ccc(OC)cc1		>10 µM
Cc1nc2ccccc2nc1COC(=O)c1ccc2ccccc2c1O	MTS	>100 µM
Cc1ccc(C[C@@H](C)[C@@H](C)Cc2ccc(C)c(C)c2)cc1C	trypan blue	35 µM
CC(C)(C)OC(=O)N1[C@H](CO)CC(F)(F)[C@H]1n1cnc2ncnc(Cl)c21		59.5 µM
Cn1ccc2ccc(NC(=O)NCCc3ccc4c(n3)NCCC4)cc21		0.48 µM
Nc1ccn([C@H]2C=C(F)[C@@H](CO)O2)c(=O)n1		>100 µM
Cc1cn([C@@H]2CC[C@H](COC(=O)CCCCCCCCC(=O)OC[C@H]3O[C@@H](n4cc(C)c(=O)[nH]c4=O)C[C@@H]3F)O2)c(=O)[nH]c1=O		>1 µM
COc1cccc2ccc(/C=C/C(=O)Nc3ccccc3F)nc12	MTT	9.56 µM
CCOC(=O)[C@H](C)NP(=O)(OCC(F)(F)C(F)(F)Cn1c(=O)cc[nH]c1=O)Oc1ccccc1		>100 µM
Nc1ccn([C@H]2C=C[C@@H](CO)O2)c(=O)n1		65 µM
Cc1cn([C@@H]2O[C@@H](CO)C=C2F)c(=O)[nH]c1=O		>100 µM
CC(C)(C)OC(=O)N1[C@H](CO)CC(F)(F)[C@H]1n1cc(F)c(=O)[nH]c1=O		30.5 µM
Nc1ncnc2c1ncn2C1OC(CO)C=C1F		>100 µM
Nc1nc2c(ncn2[C@@H]2CC(CO)=C[C@H]2O)c(=O)[nH]1	trypan blue	>100 µM
COc1ccc(CCNC(=O)NCCc2ccc3c(n2)NCCC3)cc1		50 µM
CC(Cc1nc(-c2ccc(O)c(O)c2)cs1)n1cc(Cl)cn1	MTS	20 µM
CC[C@H](C)[C@H](NC(=O)[C@@H](C[C@H](O)[C@H](CC1CCCCC1)NC(=O)CC(C)(C)C)C(C)C)C(=O)NCc1ccccn1		>10 µM
Nc1ccn(CC(F)(F)C(F)(F)C(F)(F)CO)c(=O)n1		>100 µM
Nc1ccn([C@H]2S[C@@H](CO)C=C2F)c(=O)n1		>100 µM
Nc1ccn([C@@H]2CC(CO)=C[C@H]2O)c(=O)n1	trypan blue	>100 µM
Cc1nnc2c3ccccc3c(N3CCc4ccc(C(=O)O)cc4C3)nn12		54 µM
Nc1ccn(C[C@H]2C[C@H]2CO)c(=O)n1		>100 µM
Cc1cn(CC(F)(F)C(F)(F)C(F)(F)COP(=O)(N[C@@H](C)C(=O)OC(C)C)Oc2ccccc2)c(=O)[nH]c1=O		>100 µM
Nc1nc(Cl)c2ncn([C@H]3O[C@@H](CO)C=C3F)c2n1		>100 µM
CC(C)(C)C(=O)SCCOP(=O)(OCCSC(=O)C(C)(C)C)OC[C@H]1CC[C@@H](n2cnc3c(N)ncnc32)O1		>100 µM
Cc1nc2ccccc2nc1COC(=O)c1ccc(O)cc1O	MTS	>100 µM
CCOC(=O)[C@H](C)NP(=O)(OC[C@@H]1OC[C@H](n2cnc3c(NC4CC4)nc(N)nc32)O1)Oc1ccccc1	MTT	>100 µM
Cc1cn([C@H]2C=C[C@@H](CO)O2)c(=O)[nH]c1=O		>10 µM
Nc1cnc2c(c1)CN(c1nn3c(C4CC4)nnc3c3ccccc13)CC2		100 µM
CCCCOc1nc(N)c2c(n1)N(Cc1cccc(CN3CCCC3)c1)CC(=O)N2	luminescence	22 µM
C[C@H]1[C@H](O)[C@@H](C)/C=C/C=C/C=C/C=C/C=C/C=C/C=C/[C@H](O[C@@H]2O[C@H](C)[C@@H](O)[C@H](N)[C@@H]2O)C[C@@H]2O[C@](O)(C[C@@H](O)C[C@@H](O)CC[C@H](O)[C@@H](O)C[C@@H](O)CC(=O)O[C@H]1C)C[C@H](O)[C@H]2C(=O)O	MTT	>25 µM
O=c1ccn([C@H]2O[C@@H](CO)C=C2F)c(=O)[nH]1		>100 µM
Nc1nc2c(ncn2[C@H]2CO[C@@H](CO)O2)c(=O)[nH]1	MTT	>100 µM
O=C(NCCc1ccc2c(n1)NCCC2)Nc1ccc(F)cc1F		50 µM
Nc1ncnc2c1ncn2CC(F)(F)C(F)(F)CO		>100 µM
C/C(=C/C(=O)c1ccccc1)Nc1ccc(O)cc1	MTS	>100 µM
O=C(NCCc1ccc2c(n1)NCCCC2)NCc1ccc(Cl)c(Cl)c1		50 µM
C=Cn1cc(C(=O)O)c(=O)c2ccc(N3CCN(c4cccc(C(F)(F)F)c4)CC3)cc21		5.7 µM
Nc1ncnc2c1ncn2[C@@H]1CC(CO)=C[C@@H]1O	trypan blue	>100 µM
Nc1nc2c(ncn2[C@H]2S[C@@H](CO)C=C2F)c(=O)[nH]1		>13 µM
COc1ccc(NC(=O)NCCc2ccc3c(n2)NCCC3)cc1OC		0.68 µM
CCOC(=O)[C@H](C)NP(=O)(OC[C@@H]1OC[C@H](n2cnc3c(Cl)nc(N)nc32)O1)Oc1ccccc1	MTT	>100 µM
COc1cccc(-c2nnc3c4ccccc4c(N4CCc5ccccc5C4)nn23)c1		>100 µM
Nc1ccn([C@@H]2S[C@H](CO)C=C2F)c(=O)n1		>100 µM
Cc1cn([C@H]2C[C@H](N=[N+]=[N-])[C@@H](CO)O2)c(=O)[nH]c1=O	MTS	>100 µM

A second listing of 9 rows from above:

{"SMILES": "Nc1ncnc2c1ncn2CC(F)(F)C(F)(F)CO", "result": ">100 µM"}
{"SMILES": "Cc1nnc2c3ccccc3c(N3CCc4ccccc4C3)nn12", "result": "37.1 µM"}
{"SMILES": "NCC(NC(=O)c1ccc(-c2ccc(C(F)(F)F)c(F)c2)[nH]1)c1nc(CO)cs1", "method": "MTT", "result": "15 µM"}
{"SMILES": "C/C(=C\\CP(=O)(OCOC(=O)C(C)(C)C)OCOC(=O)C(C)(C)C)Cn1cnc2c(=O)[nH]c(N)nc21", "method": "absorbance", "result": "90.7 µM"}
{"SMILES": "Nc1nc2c(ncn2[C@@H]2CC(CO)=C[C@H]2O)c(=O)[nH]1", "method": "trypan blue", "result": ">100 µM"}
{"SMILES": "COc1cccc(-c2nnc3c4ccccc4c(N4CCc5ccccc5C4)nn23)c1", "result": ">100 µM"}
{"SMILES": "Nc1ccn([C@@H]2CC(CO)=C[C@H]2O)c(=O)n1", "method": "trypan blue", "result": ">100 µM"}
{"SMILES": "CC[C@H](C)[C@H](NC(=O)[C@@H](C[C@H](O)[C@H](CC1CCCCC1)NC(=O)CC(C)(C)C)C(C)C)C(=O)NCc1ccccn1", "result": ">10 µM"}
{"SMILES": "CC(C)(C)c1ccccc1NC(=O)NCCc1ccc2c(n1)NCCC2", "result": "0.45 µM"}